Results of unrelated studies side by side (data: NIAID ChemDB).

Shared fields: tests in culture; species: Hepatitis C virus

Rows are shuffled and stem from different studies. ECn is the concentration giving n% inhibition of infection, replication or growth. An empty or dashed field is not shown.

SMILES | endpoint | strain or isolate | cell line | read by | result
C[C@@H](NC(=O)C(=O)C(CC1CC1)NC(=O)[C@@H]1C2[C@H](CN1C(=O)[C@@H](NC(=O)N[C@H](C(=O)OC(C)(C)C)C(C)(C)C)C(C)(C)C)C2(C)C)c1ccccc1 | EC90 | - | - | replicon | 0.3 µM
C[C@@]1(F)[C@H](O)[C@@H](CO)O[C@@H]1n1cc(I)c2c(N)nc(N)nc21 | EC90 | - | CEM | replicon | >10 µM
OC[C@@H]1C[C@@H](O)[C@H](n2cnc3c(Cc4ccccc4)ncnc32)O1 | EC50 | - | - | replicon | >10 µM
CC(C)[C@H](N)CC(=O)O[C@H]1[C@H](C)[C@H](n2ccc(=O)[nH]c2=O)O[C@@]1(CO)N=[N+]=[N-] | EC50 | - | Huh7 | luciferase | 0.72 µM
C#Cc1cn([C@@H]2O[C@H](CO)[C@@H](O)[C@@]2(C)F)c2nc(N)nc(N)c12 | EC90 | - | CEM | replicon | >10 µM
CC(C)[C@H](N)CC(=O)OC[C@@]1(N=[N+]=[N-])O[C@@H](n2ccc(=O)[nH]c2=O)[C@@H](C)[C@@H]1O | EC50 | - | Huh7 | luciferase | 0.79 µM
Cc1cccc(N2C(=O)/C(=C\c3cc(-c4ccsc4)cs3)C(=O)N(c3ccc(F)cc3)C2=S)c1 | EC50 | - | - | replicon | 5.6 µM
C[C@H](CCC(=O)C(C)(C)O)[C@H]1CC[C@@]2(C)[C@@H]3CC[C@H]4C(C)(C)[C@H](O)CC[C@]4(C)C3=CC[C@]12C | EC50 | Jc1 | n4mBid cells | ATP | >100 µM
OC[C@@H]1C[C@@H](O)[C@H](n2cnc3c(-c4cccs4)ncnc32)O1 | EC50 | - | - | replicon | >10 µM
CC(=O)O[C@H]1CC[C@]2(C)C3=CC[C@]4(C)[C@@H]([C@H](C)CC[C@H](O)C(C)(C)O)CC[C@@]4(C)[C@@H]3CC[C@H]2C1(C)C | EC50 | Jc1 | n4mBid cells | ATP | >100 µM
CC(=O)N1c2cccc(O)c2NC2=C(C(=O)CC(C)(C)C2)C1c1ccc(OCc2ccccc2)cc1Cl | EC50 | 1b | - | luciferase / reporter gene / replicon | 1.43 µM
Cc1ccccc1N1C(=O)/C(=C\c2ccc(-c3cccc(Cl)c3)o2)C(=O)N(c2ccccc2)C1=S | EC50 | - | - | replicon | 3.7 µM
CNC(=O)c1c(-c2ccc(F)cc2)oc2cc(N(CCO)S(C)(=O)=O)c(C3CC3)cc12 | EC50 | C316N genotype 1b | Huh7.5 | luciferase | 0.257 µM
CC1CCC(C(=O)N(c2cc(-c3ccc(NC(=O)c4cscn4)s3)sc2C(=O)O)C(C)C)CC1 | EC50 | 1a | - | replicon | <0.5 µM
O=C(Nc1cccc(-c2cc(-c3c(Cl)cccc3Cl)no2)c1)C(Cl)Cl | EC50 | - | - | replicon | ≤10 µM
CC1(C)CC(=O)C2=C(C1)Nc1c(O)cccc1N(C(=O)C1CCC1)[C@H]2c1ccc(OCc2ccccc2)cc1F | EC50 | 1b | - | luciferase / reporter gene / replicon | 0.39 µM
C=C[C@@H]1C[C@]1(NC(=O)C1C[C@@H](Oc2cc(-c3csc(NC4CCCC4)n3)nc3cc(OC)ccc23)CN1C(=O)[C@@H](NC(=O)OC1CCC1)C(C)(C)C)C(=O)O | EC50 | - | Huh7 | - | <0.5 µM
Cc1cc(-c2nnc(NC3CC(O)(C(F)F)C3)o2)nc2c(C(C)(C)C)cc(NCC(F)(F)F)cc12 | EC50 | WT 1b | Huh7 | luciferase | 0.00008 µM
CN(C)c1cc(Cl)c(-c2cc(-c3cccc(N(C)C(=O)C(Cl)Cl)c3)on2)c(Cl)c1 | EC50 | - | - | replicon | ≤10 µM
CC(C)CC(NC(=O)NC(C(=O)N1C[C@H]2C([C@H]1C(=O)NC(CC1CC1)C(=O)C(=O)NCC(=O)N[C@H](C(=O)N(C)C)c1ccccc1)C2(C)C)C(C)(C)C)C(=O)O | EC90 | - | - | replicon | 5 µM
C[C@@]1(F)[C@H](O)[C@@H](CO)O[C@H]1n1cc(I)c2c(N)nc(N)nc21 | EC90 | - | CEM | replicon | >10 µM
Fc1ccccc1-c1nc2ccn(Cc3ccc(-c4ccc(C(F)(F)F)cc4C(F)(F)F)nn3)cc-2n1 | EC50 | 1a | - | replicon | 0.0036 µM
CCCC(=O)OC[C@@]1(N=[N+]=[N-])O[C@@H](n2ccc(=O)[nH]c2=O)[C@@H](C)[C@@H]1O | EC50 | - | Huh7 | luciferase | 3.6 µM
CC(C)(O)[C@@H](O)CCCC1CC[C@@]2(C)[C@@H]3CCC4C(C)(C)[C@H](O)CC[C@]4(C)C3=CC[C@]12C | EC50 | Jc1 | n4mBid cells | ATP | 1.33 µM
COCC(C)N(C(=O)C1CCC(C(F)(F)F)CC1)c1cc(-c2ccc(NC(=O)c3cscn3)cc2)sc1C(=O)O | EC50 | 1a | - | replicon | <0.5 µM
OCc1ncnc2c1ncn2[C@@H]1O[C@H](CO)C[C@H]1O | EC50 | - | - | replicon | >10 µM
O=C(Nc1cccc(-c2cc(-c3c(Cl)cccc3Cl)no2)c1)C(F)F | EC50 | - | - | replicon | >10 µM
C[C@@H]1[C@H](n2ccc(=O)[nH]c2=O)O[C@@](COP(=O)(N[C@@H](C)C(=O)OCc2ccccc2)Oc2cccc3ccccc23)(N=[N+]=[N-])[C@H]1O | EC50 | - | Huh7 | luciferase | 6.2 µM
Cc1cc(-c2nnc(N[C@@H]3CCC[C@H](O)C3)o2)nc2c(C(C)(C)C)cc(OCC(F)(F)F)cc12 | EC50 | GT 1b H94N | Huh7 | - | 0.0055 µM
CC(C)COc1ccc(N(C(N)=O)c2nc(-c3ccc(F)c(F)c3)cs2)cc1C(F)(F)F | EC50 | - | - | - | <1 µM
C=CCNC(=O)C(=O)C(CCCC)NC(=O)[C@@H]1C2[C@H](CN1C(=O)[C@@H](NC(=O)N[C@H](C(=O)OC(C)(C)C)C(C)(C)C)C(C)(C)C)C2(C)C | EC90 | - | - | replicon | 0.1 µM
CCN(C(=O)C1CCC(C)CC1)c1cc(-c2ccc(NC(=O)c3cscn3)cc2)sc1C(=O)O | EC50 | 1a | - | replicon | <0.5 µM
C=C[C@@H]1C[C@]1(NC(=O)C1C[C@@H](Oc2cc(-c3csc(NC4CCCCC4)n3)nc3cc(OC)ccc23)CN1C(=O)[C@@H](NC(=O)OC1CCCC1)C(C)(C)C)C(=O)O | EC50 | - | Huh7 | - | <0.5 µM
C[C@@]1(F)[C@H](O)[C@@H](CO)O[C@H]1n1cc(I)c2c(N)ncnc21 | EC90 | - | CEM | replicon | >10 µM
O=C(Nc1ccc(F)c(-c2cc(-c3c(Cl)cccc3Cl)no2)c1)C(Cl)Cl | EC50 | - | - | replicon | ≤10 µM
CC(C)OC(=O)N[C@H](C(=O)N1C[C@H]2C(C1C(=O)NC(CC1CC1)C(=O)C(=O)NCC(=O)N[C@H](C(=O)N(C)C)c1ccccc1)C2(C)C)C1CCCCC1 | EC90 | - | - | replicon | 0.2 µM
Cc1cc(-c2cc(N(C(=O)C3CCC(C)CC3)C(C)C)c(C(=O)O)s2)ncc1NC(=O)c1cscn1 | EC50 | 1a | - | replicon | <0.5 µM
CCCCCOc1ccc(N(C(N)=O)c2nc(-c3cccnc3)cs2)cc1C(F)(F)F | EC50 | - | - | - | <1 µM
Cc1cccc(Cl)c1-c1cc(-c2cccc(NC(=O)C(Cl)Cl)c2)on1 | EC50 | - | - | replicon | ≤10 µM
CC1CCC(C(=O)N(c2cc(-c3ccc(NC(=O)c4ncc[nH]4)cc3)sc2C(=O)O)C(C)C)CC1 | EC50 | 1b | - | replicon | <0.5 µM
CC(C)CC(NC(=O)N[C@H](C(=O)N1C[C@H]2C([C@H]1C(=O)NC(CC1CC1)C(=O)C(=O)NCC(=O)N[C@H](C(=O)N(C)C)c1ccccc1)C2(C)C)C(C)(C)C)C(=O)OCc1ccccc1 | EC90 | - | - | replicon | 3.1 µM
CC(=O)N1c2cccc(O)c2NC2=C(C(=O)CC(C)(C)C2)C1c1ccsc1 | EC50 | 1b | - | luciferase / reporter gene / replicon | 1.77 µM
CCCCCOc1ccc(N(C(N)=O)c2nc(-c3cccnc3)c(F)s2)cc1C(F)(F)F | EC50 | - | - | - | <1 µM
C=C[C@@H]1C[C@]1(NC(=O)C1C[C@@H](Oc2cc(-c3csc(NC4CCCC4)n3)nc3cc(OC)ccc23)CN1C(=O)[C@@H](NC(=O)OC1CCCCC1)C(C)(C)C)C(=O)O | EC50 | - | Huh7 | - | <0.5 µM
CC(C)(C)[C@H](NC(=O)N[C@H](C(=O)N1C[C@H]2C([C@H]1C(=O)NC(CC1CC1)C(=O)C(N)=O)C2(C)C)C(C)(C)C)C(=O)OC1CCCC1 | EC90 | - | - | replicon | 0.8 µM
Cc1oc(C(C)C)nc1C(=O)N1c2cccc(O)c2NC2=C(C(=O)CC(C)(C)C2)C1c1ccc(OCc2ccccc2)cc1F | EC50 | 1b | - | luciferase / reporter gene / replicon | 6.56 µM
CCCCCOc1ccc(N(C(=O)C(=O)OC)c2nc(-c3ccncc3)cs2)cc1C(F)(F)F | EC50 | - | - | - | <1 µM
C=C1CC[C@@](C)([C@H](C)CC(=O)O)[C@@]12CCC1=C2CC[C@H]2C(C)(C)C(=O)CC[C@]12C | EC50 | Jc1 | n4mBid cells | ATP | >100 µM
CC(C)c1ccccc1-c1cc(-c2cccc(N(C)C(=O)C(Cl)Cl)c2)on1 | EC50 | - | - | replicon | ≤10 µM

A second listing of 4 rows from above:

SMILES	endpoint	strain or isolate	cell line	read by	result
OC[C@@H]1C[C@@H](O)[C@H](n2cnc3c(Cc4ccccc4)ncnc32)O1	EC50	-	-	replicon	>10 µM
C[C@@H](NC(=O)C(=O)C(CC1CC1)NC(=O)[C@@H]1C2[C@H](CN1C(=O)[C@@H](NC(=O)N[C@H](C(=O)OC(C)(C)C)C(C)(C)C)C(C)(C)C)C2(C)C)c1ccccc1	EC90	-	-	replicon	0.3 µM
C[C@@]1(F)[C@H](O)[C@@H](CO)O[C@H]1n1cc(I)c2c(N)nc(N)nc21	EC90	-	CEM	replicon	>10 µM
CC(=O)O[C@H]1CC[C@]2(C)C3=CC[C@]4(C)[C@@H]([C@H](C)CC[C@H](O)C(C)(C)O)CC[C@@]4(C)[C@@H]3CC[C@H]2C1(C)C	EC50	Jc1	n4mBid cells	ATP	>100 µM